A mixed list of measured activities; the numbers were collected in NIAID ChemDB.

Common to all: whole-cell or culture tests; organism: Plasmodium falciparum; method: LDH; read-out: EC50

Neighbouring rows are from separate reports.

compound	strain	result
CC(C)CCC[C@@H]1C[C@@H]2CCC[C@@H]3C[C@H](CCCC(C)C)NC(=N1)N32	W2	1.96 µM
CN1CCN(C(=O)n2cc(-c3ccnc(N)n3)c3cc(Br)ccc32)CC1	D6	>14.43 µM
NC(=S)N/N=C/c1ccc2ccccc2c1	NF54	17.4 µM
CC(C)=CCCC1CC2CCCC3CC(C)NC(=N1)N23	W2	9.45 µM
COc1cc(C(=O)/C=C/c2cc3c(cc2OC)CCC2C3CC[C@@]3(C)C2CC[C@@H]3O)ccc1O	NF54	97.84 µM
C=C(C)C1CC[C@]2(C(=O)O)CC[C@@]3(C)[C@]4(C)CC[C@H]5C(C)(C)[C@@H](OC(=O)/C=C\c6ccc(O)cc6)CC[C@]5(C)[C@H]4CC[C@]3(C)[C@@H]12	D10	10.4 µM
COc1cc2c(cc1C1CC(=O)c3cc(OC)c(OC)c(OC)c31)C1CC[C@@]3(C)C(CCC[C@@H]3OC(C)=O)C1CC2	NF54	16.39 µM
NC(=S)N/N=C/c1ccc2ccccc2c1.[Cl][Ru+].c1ccccc1	NF54	6.5 µM
O=C1NC(c2c[nH]c3ccc(Br)cc23)Nc2ccccc21	D6	>14.43 µM
COc1cc2c(cc1/C=C/C(=O)c1ccc3c(c1)OCO3)C1CC[C@@]3(C)C(CC[C@@H]3O)C1CC2	NF54	24.31 µM
C=C(C)C1CC[C@]2(C(=O)O)CC[C@@]3(C)[C@]4(C)CC[C@H]5C(C)(C)[C@@H](OC(=O)/C=C/c6ccc(O)cc6)CC[C@]5(C)[C@H]4CC[C@]3(C)[C@@H]12	D10	15.3 µM
CC(C)CCCC1CC2CCCC3CC(C)NC(=N1)N23	W2	7.22 µM
NCCNc1ccnc2cc(Cl)ccc12	K1	2.56 µM
CCCCC1CC2CCCC3CC(C)NC(=N1)N23	D6	3.21 µM
CCN(CC)CCCC(C)Nc1ccnc2cc(Cl)ccc12	D10	0.02 µM
C#CCC[C@@H]1C[C@@H]2CC[C@@H]3C[C@H](CCC#C)NC(=N1)N32	W2	7.71 µM
COc1cc2c(cc1/C=C/C(=O)c1ccc(Br)cc1)C1CC[C@@]3(C)C(CC[C@@H]3O)C1CC2	NF54	30.56 µM
CC(C)CCCC1CC2CCC3CC(C)NC(=N1)N23	W2	3.53 µM
Cc1ccc(C(C)C)cc1.NC(=S)N/N=C/c1ccc(Cl)cc1.[Cl][Ru+]	NF54	2.9 µM

The first 2 rows once more:

compound	strain	result
CC(C)CCC[C@@H]1C[C@@H]2CCC[C@@H]3C[C@H](CCCC(C)C)NC(=N1)N32	W2	1.96 µM
CN1CCN(C(=O)n2cc(-c3ccnc(N)n3)c3cc(Br)ccc32)CC1	D6	>14.43 µM

ECn: concentration that inhibits the pathogen or its effect by n%.